In patent US12630523B2, “Isoquinoline derivatives for use as antiviral and antitumour agents” (priority 2021, dated 2026):

System: cell signaling molecules (4E-BP1, p70 S6 kinase, Akt, PTPN14, p53, PD-L1)
Assay: Western blot of cell signaling molecules in CaSki cells
Conditions: 10 μM, 4 hours

## Cc1ccc(CN2C(=O)c3ccccc3[C@H](C(=O)Nc3cccc(N4CCN(C)CC4)c3)[C@@H]2c2ccc(C(F)(F)F)cc2)cc1 [OC246, N-[3-(4-methylpiperazin-1-yl)phenyl]-2-[(4-methylphenyl)methyl]-1-oxo-3-[4-(trifluoromethyl)phenyl]-1,2,3,4-tetrahydroisoquinoline-4-carboxamide]
  phosphor-p70-S6K T389: de-phosphorylated
